Experimental data reported in ChEMBL document CHEMBL6109097, “Structure-based design of novel 2,4,5-trisubstituted pyrimidine derivatives as potent HIV-1 NNRTIs by exploiting the tolerant regions in NNTRIs binding pocket” (Eur J Med Chem, 2025).

Target: Human immunodeficiency virus type 1 reverse transcriptase (Human immunodeficiency virus 1, UniProt Q72547)
Assay: Inhibition of wild type HIV-1 reverse transcriptase assessed as reduction in biotin-dUTP incorporation in cDNA preincubated with compound for 1 hr in presence of biotin-labeled dNTPs by ELISA

SMILES: Cc1cc(C#N)cc(C)c1Oc1nc(Nc2ccc(C#N)cc2)nc(N)c1Br [ETRAVIRINE]
- IC50: 20 nM
